# Measurements published in ChEMBL document CHEMBL1201862, “PubChem BioAssay data set” (2004).
# The list shows a part of the results, in another mix than the full data. Only a part of the results of these assays is listed, not drawn at random.
# Experiment: compounds boosting herpes simplex virus growth – fold increase, host cell viability (AID 1956); call rule not given here
# Assay type: functional
row,Structure (SMILES),Conc @ Max Fold Incr
1,Cc1cc(SC(NC(=O)c2ccccc2)C(Cl)(Cl)Cl)nc(C(C)C)n1 (stereo unspecified),inactive: 3.12 µM
